Laboratory results published in paper PMC8626775, “Anti-schistosomal activities of quinoxaline-containing compounds: From hit identification to lead optimisation” (European Journal of Medicinal Chemistry, 2021).

Tests used:
S. mansoni schistosomula = S. mansoni schistosomula high-throughput phenotype and motility screen (Roboworm), 72 h; format: cell-based, Schistosoma mansoni; details: 38 versus 29; 22a versus 22
Protocol: Cercariae derived from the NMRI ([…]) Puerto Rican strain (PR-1) of S. mansoni were shed from two Biomphalaria glabrata strains, the NMRI albino and pigmented outbred strains, under intensified lighting conditions (1 h of incubation at 26 °C). Cercariae were then mechanically transformed into schistosomula as previously described.
High-throughput screening (HTS) of selected compounds was conducted as previously described. Briefly, newly transformed schistosomula were distributed in a 384-well tissue culture plate (PerkinElmer, cat 6007460, seeding density of 120 parasites/well). Each compound (at a single concentration or two-fold titrations) was transferred into individual wells alongside the positive and negative controls (AUR at 10 μM final concentration in 0.625% DMSO and 0.625% DMSO, respectively). Schistosomula/compound co-cultures were then incubated at 37 °C for 72 h in a humidified atmosphere containing 5% CO2. Following the co-culture period, automatic assessment of compound-induced schistosomula motility and phenotypic changes were conducted with the high-content imaging platform Roboworm using the image analysis model previously described by Paveley et al..

HepG2 cells = experiment: HepG2 MTT cytotoxicity assay
Protocol: Initially the cells were handled under sterile conditions and grown at 37 °C in a humidified atmosphere containing 5% CO2. Cytotoxicity was evaluated by way of a 3-(4, 5- dimethylthiazol-2-yl)-2,5-diphenyl tetrazolium bromide (MTT) assay as previously described. The cells were counted in a dual chamber counting slide using the BIORAD TC-10 Automated cell counter, seeded in a 96-well plate (Fisher Scientific, Loughborough, UK) at a density of 2 × 10^4 cells/well and incubated in an atmosphere of 5% CO2 at 37 °C. […] The absorbance readings (at 570 nm) of the soluble formazan crystals were recorded using PolarStar Omega plate reader (BMG-Labtech). […] The latter was used to calculate the selectivity index (SI) of the compounds presented herein.

Row | Compound | Fold decrease of anti-schistosomal activity relative to the 6-nitro analogue (S. mansoni schistosomula) | Selectivity Index (SI) Adult worms (HepG2 cells; HepG2 CC50 versus adult worm EC50) | Selectivity Index (SI) Somula (HepG2 cells; HepG2 CC50 versus schistosomula EC50)
1 | Nc1ccc2nc(Nc3ccc(Cl)c(Cl)c3)c(Nc3ccc(Cl)c(Cl)c3)nc2c1 [Compound 22a, N^2, N^3-bis(3,4-dichlorophenyl)quinoxaline-2,3,6-triamine] | approximately 10 fold | – | –
2 | N2, N3-bis(4-bromophenyl)quinoxaline-2,3-diamine [Compound 38, reference compound] | 4 fold | 28.65 | 1.90
